“And” between values parts separate entries of the source, which are not always exact repeats. Equal entries are not always repeated.
What was measured:
Test in all cases: SPR
Settings in all cases: both partners purified
[1] = target: SARS-CoV-2 spike protein receptor binding domain (RBD […]), Beta B.1.351 (SARS-CoV-2)
[2] = target: SARS-CoV-2 spike protein receptor binding domain (RBD […]), Alpha B.1.1.7 (SARS-CoV-2)
[3] = target: SARS-CoV-2 spike protein receptor binding domain (RBD […]), Delta B.1.617.2 (SARS-CoV-2)
[4] = target: T1, SARS-CoV-2 spike protein receptor binding domain (RBD […]), Kappa B.1.617.1 (SARS-CoV-2)
[5] = target: T1, SARS-CoV-2 spike protein receptor …; remark: listed apart in the source

B1: Human angiotensin-converting enzyme 2 ectodomain ([…]) with C-terminal E5 coil tag, p (receptor)
chain: not shown
notes: also called ACE2-E5; ACE2; not shown: E5 coil (GGGG[EVSALEK]5GGG), C-terminal, kept
Which results are given for B1?
kon [1]: 392000 M⁻¹ s⁻¹ and 1.14e+06 M⁻¹ s⁻¹; kon [2]: 434000 M⁻¹ s⁻¹ and 1.11e+06 M⁻¹ s⁻¹; koff [3]: 0.0447 s⁻¹; kon [3]: 421000 M⁻¹ s⁻¹; koff [4]: 0.00528 s⁻¹; kon [4]: 189000 M⁻¹ s⁻¹; Kd [5]: 0.0295 µM and 0.069 µM and 0.0755 µM

— article PMC9261887 (Scientific Reports, 2022)
